A mixed list of measured activities; the numbers were collected in NIAID ChemDB.

All rows: tests in culture; species: HIV-1

a–b is a range or a potency band.

{"structure": "CC(C)CN(C[C@@H](O)[C@H](Cc1ccccc1)NC(=O)OCc1cncs1)S(=O)(=O)c1ccc2nc(N)oc2c1", "method": "cytopathic effect / MTT", "strain or isolate": "LAI WT", "cell line": "MT-4", "endpoint": "EC50", "result": "0.0066 µM"}
{"structure": "O=C(Nc1cccnc1)c1ccc(C2=NN3C(C(=O)c4ccc(F)cc4)Oc4ccccc4C3C2)cc1", "method": "GFP / reporter gene", "strain or isolate": "LAI", "cell line": "MT-4", "endpoint": "EC50", "result": "1–10 µM"}
{"structure": "COC(=O)N[C@H]1C(=O)Nc2ccc(Cl)cc2[C@@]1(C#CC1CC1)C(F)(F)F", "strain or isolate": "RF", "cell line": "MT-2", "endpoint": "EC50", "result": "<0.212 µM"}
{"structure": "CCc1ccc(C(=O)C2Oc3ccccc3C3CC(c4ccc(C(=O)NC5CCCC5)cc4)=NN23)cc1", "method": "GFP / reporter gene", "strain or isolate": "LAI", "cell line": "MT-4", "endpoint": "EC50", "result": "<1 µM"}
{"structure": "O=C1Nc2ccc(Cl)cc2[C@@](C#CC2CC2)(C(F)(F)F)[C@H]1O", "strain or isolate": "RF", "cell line": "MT-2", "endpoint": "EC50", "result": "<0.637 µM"}
{"structure": "Cc1cccc(C)c1OC(CCO)C(=O)N[C@@H](Cc1ccccc1)[C@H](O)CN(CC(C)C)S(=O)(=O)c1ccc2nc(N)oc2c1", "method": "cytopathic effect / MTT", "strain or isolate": "LAI WT", "cell line": "MT-4", "endpoint": "EC50", "result": "1.62 µM"}
{"structure": "Cc1cn([C@H]2C[C@H](N=[N+]=[N-])[C@@H](CO)O2)c(=O)[nH]c1=O", "method": "RT activity", "strain or isolate": "MDR 769", "cell line": "PBMC", "endpoint": "EC50", "result": ">1000 µM"}
{"structure": "O=C(NC1CCC1)c1[nH]c(=O)c(O)c2c1CCN(Cc1ccc(F)cc1)C2=O", "method": "p24", "cell line": "MT-4", "endpoint": "EC95", "result": "≤10 µM"}
{"structure": "O=C1Nc2ccc(Cl)cc2[C@@](C#CC2CC2)(C(F)(F)F)[C@H]1OCc1ccc(F)cc1", "strain or isolate": "RF", "cell line": "MT-2", "endpoint": "EC50", "result": "<0.112 µM"}
{"structure": "CN(C)C(=O)c1c2c(c(O)c(=O)n1C)C(=O)N(Cc1ccc(F)c(Cl)c1)CC2", "method": "p24", "cell line": "MT-4", "endpoint": "EC95", "result": "≤10 µM"}
{"structure": "O=C(NC1CCCC1)c1ccc(C2=NN3C(C(=O)c4ccc(C5CCCCC5)cc4)Oc4ccccc4C3C2)cc1", "method": "GFP / reporter gene", "strain or isolate": "LAI", "cell line": "MT-4", "endpoint": "EC50", "result": "1–10 µM"}
{"structure": "CCCO[C@H]1C(=O)Nc2ccc(Cl)cc2[C@@]1(C#CC1CC1)C(F)(F)F", "strain or isolate": "RF", "cell line": "MT-2", "endpoint": "EC50", "result": "<0.062 µM"}
{"structure": "Cc1cc(CN2CCn3c(nc(C(=O)NCc4ccc(F)cc4)c(O)c3=O)C2(C)C)on1", "method": "p24", "cell line": "MT-4", "endpoint": "EC95", "result": "<1 µM"}
{"structure": "C=C1CN(S(=O)(=O)c2ccc(C)cc2)CCCN(Cc2ccccc2)CCCN(S(=O)(=O)c2ccc(C)cc2)C1", "method": "cytopathic effect", "strain or isolate": "RF", "cell line": "MT-4", "endpoint": "EC50", "result": "1.5 µM"}
{"structure": "CC(C)CN(C[C@@H](O)[C@H](Cc1ccccc1)NC(=O)OC1COC2OCCC12)S(=O)(=O)c1ccc2nc(N)oc2c1", "method": "cytopathic effect / MTT", "strain or isolate": "LAI WT", "cell line": "MT-4", "endpoint": "EC50", "result": "0.0331 µM"}
{"structure": "CC(=O)N(C)C1CN(C)CCn2c1nc(C(=O)NCc1ccc(F)cc1)c(O)c2=O", "method": "p24", "cell line": "MT-4", "endpoint": "EC95", "result": "<1 µM"}
{"structure": "Cc1cn([C@H]2C[C@H](N=[N+]=[N-])[C@@H](CO)O2)c(=O)[nH]c1=O", "method": "MTT", "strain or isolate": "IIIB", "cell line": "MT-4", "endpoint": "EC50", "result": "0.02 µM"}
{"structure": "Nc1ccc(CO[C@H]2C(=O)Nc3ccc(Cl)cc3[C@@]2(C#CC2CC2)C(F)(F)F)cc1", "strain or isolate": "RF", "cell line": "MT-2", "endpoint": "EC50", "result": "<0.021 µM"}
{"structure": "CC1(C)c2nc(C(=O)NCc3ccc(F)cc3)c(O)c(=O)n2CCN1Cc1cscn1", "method": "p24", "cell line": "MT-4", "endpoint": "EC95", "result": "<1 µM"}
{"structure": "CN1CCN(C(=O)c2ccc(C3=NN4C(C(=O)c5ccc(F)cc5)Oc5ccccc5C4C3)cc2)CC1", "method": "GFP / reporter gene", "strain or isolate": "LAI", "cell line": "MT-4", "endpoint": "EC50", "result": "<1 µM"}
{"structure": "CN(c1[nH]c(=O)c(O)c2c1CCN(Cc1ccc(F)cc1)C2=O)S(C)(=O)=O", "method": "p24", "cell line": "MT-4", "endpoint": "EC50", "result": "<10 µM"}
{"structure": "Nc1ccn([C@H]2CC[C@@H](CO)O2)c(=O)n1", "strain or isolate": "RF", "cell line": "C8166", "endpoint": "EC50", "result": "0.15 µM"}
{"structure": "COc1c(O)cc2ccc(=O)oc2c1-c1c(O)ccc2ccc(=O)oc12", "method": "MTT", "cell line": "MT-4", "changes": "EFV-resistant (K103R V179D P225H)", "endpoint": "EC50", "result": "6.6 µM"}
{"structure": "CC(C)CN(C[C@@H](O)[C@H](Cc1ccccc1)NC(=O)O[C@H]1CO[C@H]2OCC[C@H]21)S(=O)(=O)c1ccc2nc(N)oc2c1", "method": "cytopathic effect / MTT", "strain or isolate": "LAI WT", "cell line": "MT-4", "endpoint": "EC50", "result": "0.0199 µM"}
{"structure": "COC(=O)c1[nH]c(=O)c(O)c2c1CCN(Cc1ccc(F)cc1)C2=O", "method": "p24", "cell line": "MT-4", "endpoint": "EC95", "result": "≤10 µM"}
{"structure": "O=C1Nc2ccc(Cl)cc2[C@@](C#CC2CC2)(C(F)(F)F)[C@H]1OCc1ccncc1", "changes": "RT-L100I", "endpoint": "EC50", "result": "<0.023 µM"}
{"structure": "CN1CCn2c(nc(C(=O)NCc3ccc(F)cc3)c(O)c2=O)C(N(C)C(=O)C(=O)N2CCCC2)C1", "method": "p24", "cell line": "MT-4", "endpoint": "EC50", "result": "<1 µM"}
{"structure": "O=C(NCc1ccccn1)c1ccc(C2=NN3C(C(=O)c4ccc(F)cc4)Oc4ccccc4C3C2)cc1", "method": "GFP / reporter gene", "strain or isolate": "LAI", "cell line": "MT-4", "endpoint": "EC50", "result": ">10 µM"}
{"structure": "O=C1CC(C#CC2CC2)(C(F)(F)F)c2cc(Cl)ccc2N1", "strain or isolate": "RF", "cell line": "MT-2", "endpoint": "EC50", "result": "<0.014 µM"}
{"structure": "O=C(NC1CCCC1)c1ccc(C2=NN3C(C(=O)c4ccc([N+](=O)[O-])cc4)Oc4ccccc4C3C2)cc1", "method": "GFP / reporter gene", "strain or isolate": "LAI", "cell line": "MT-4", "endpoint": "EC50", "result": "<1 µM"}
{"structure": "Cc1nnc(C(=O)N(C)C2CN(C)CCn3c2nc(C(=O)NCc2ccc(F)cc2)c(O)c3=O)o1", "method": "p24", "cell line": "MT-4", "endpoint": "EC50", "result": "<1 µM"}
{"structure": "O=C(NC1CC1)c1[nH]c(=O)c(O)c2c1CCN(Cc1ccc(F)cc1)C2=O", "method": "p24", "cell line": "MT-4", "endpoint": "EC95", "result": "≤10 µM"}
{"structure": "CN1CCn2c(nc(C(=O)NCc3ccc(F)cc3)c(O)c2=O)C(NCC2CCCCC2)C1", "method": "p24", "cell line": "MT-4", "endpoint": "EC95", "result": "<50 µM"}
{"structure": "CC(C)n1c(C(=O)N(C)C)c2c(c(O)c1=O)C(=O)N(Cc1ccc(F)c(Cl)c1)CC2", "method": "p24", "cell line": "MT-4", "endpoint": "EC50", "result": "<10 µM"}

Neighbouring rows are from separate reports. ECn is the concentration giving n% inhibition of infection, replication or growth.